This is an account of results in PubChem BioAssay AID1347417 (National Center for Advancing Translational Sciences (NCATS), 2020).

Molecules are shown by their SMILES. This is a selection; strong and weak results do not stand in their true shares. Records with an inconclusive call do not appear. Active and inactive are the calls of the source. Calls come from the whole dose curve; as a rule, active = well fitted inhibition curve with a large enough effect; inconclusive = small, poorly fitted or top-dose-only effect; inactive = no such curve, though single readings can be large or run the other way.

A short description of this test: qHTS Primary assay for Inhibitors of Plasmodium falciparum Dd2 growth in vitro.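 Note: plate controls were DMSO vehicle for no effect and reference drug for full effect; nearly all actives have a fitted effect of over 65% in size.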 The following applies: P. falciparum Dd2 growth, SYBR Green, 72 h; at 44.1 µM (top of the series). An excerpt: Malaria, a parasitic disease spread to humans through the bite of a Plasmodium infected Anopheles mosquito, continues to be a global health burden affecting millions of people, with an estimated 228 million cases and 405,000 deaths in 2018. Concerns about safety and limitations of current antimalarial treatments strongly emphasize the need to develop new therapeutic options. The scarce number of chemotypes and validated drug targets with efficacy against the liver stage, have hindered development of new antimalarials. To address this, a chemoprophylactic drug discovery effort was conducted through a combined phenotypic high-throughput asexual blood stage and liver stage screen, providing a robust foundation to identify liver-stage active lead chemotypes. Compounds were initially screened against Plasmodium falciparum Dd2 strain parasites using a in vitro SYBRGreen-1 based 72 hr proliferation assay to identify novel chemotypes to advance to liver stage assays. NIH/NCATS Early Translation Branch Assay Submitter (PI): Anton Simeonov Ph.D.
Malaria-vivax Assay Protocol: PROTOCOL TABLE (as described by Inglese et al., 2007) SEQUENCE No. (e.g., 1, 2, 3, etc.); […] […] Compound Management for Quantitative High-Throughput Screening. […]
A general note: In qHTS, concentration-response curves come from the screen itself.
For the molecule `CNCc1cc2ccccc2o1`, the activity, negative = inhibition was inactive: -19.1%.

Turning to `CNCc1cccc(C)n1`, the activity, negative = inhibition is inactive: -4.38%.
